Reference: PubChem BioAssay AID1259414 (Drosophila RNAi Screening Center, 2018)
In all, the deposit lists about 24,000 reagents; this is a random part of those with a known target gene and a result. Of all reagents, about 1,210 (5%) got an active call. 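Inactive calls also include excluded dsRNAs with several or no targets, genes unexpressed in JW18, and well A1, regardless of score.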 Entries without a mark were called inactive. A plus sign joins genes that one reagent is predicted to hit. Reagent sequences are not shown.

Screen: 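Host factors increasing or decreasing Wolbachia levels in cultured fly cells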 (primary screen)
Cell system: Drosophila JW18 cells infected with Wolbachia
Reagents: long dsRNA against Drosophila genes, 0.25 µg dsRNA per well of a 384-well plate
Duration: 5 days
Conditions: cells persistently infected with Wolbachia before knock-down; no added drug
Read-out: 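Imaged fluorescence in situ signal for Wolbachia 23S rRNA per DAPI-counted host cell, given as a robust z-score within each plate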
Reading the numbers: Wolbachia per cell robust z: higher = more Wolbachia per host cell than the plate typical
Active means: 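Active if absolute robust z reaches 1.5 in two or more of three replicates, leaving out multi- or no-target dsRNAs, genes unexpressed in JW18 and A1 wells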

CG3045 (GeneID 37531) [DRSC04331] scored Wolbachia per cell robust z, rep 1 = -0.798; Wolbachia per cell robust z, rep 2 = -0.715; Wolbachia per cell robust z, rep 3 = 0.0992.
CG15812 (GeneID 38379) [DRSC08479] scored Wolbachia per cell robust z, rep 1 = -0.192; Wolbachia per cell robust z, rep 2 = -1.85; Wolbachia per cell robust z, rep 3 = -0.274.
PIG-M + CG42380 + CG42381 + 1 more [DRSC04580] scored Wolbachia per cell robust z, rep 1 = -0.534; Wolbachia per cell robust z, rep 2 = 0.697; Wolbachia per cell robust z, rep 3 = 0.535.
After knock-down of U3-55K (GeneID 3346176) [DRSC05982] the results were Wolbachia per cell robust z, rep 1 = 0.511; Wolbachia per cell robust z, rep 2 = 0.63; Wolbachia per cell robust z, rep 3 = 1.14.
For U3-55K (GeneID 3346176) [DRSC29090] the deposit lists Wolbachia per cell robust z, rep 1 = 0.104; Wolbachia per cell robust z, rep 2 = 0.187; Wolbachia per cell robust z, rep 3 = 1.84.

Just “Wolbachia per cell robust z, rep 2”, for 2 of the entries above:
CG15812 (GeneID 38379) [DRSC08479]: -1.85
PIG-M + CG42380 + CG42381 + 1 more [DRSC04580]: 0.697

Additional records follow.
After knock-down of CG1924 (GeneID 32180) [DRSC19823], the record shows Wolbachia per cell robust z, rep 1 = -4.48; Wolbachia per cell robust z, rep 2 = -0.209; Wolbachia per cell robust z, rep 3 = -0.763.
After knock-down of CG1924 (GeneID 32180) [DRSC24870], the screen gave Wolbachia per cell robust z, rep 1 = -1.54 (active); Wolbachia per cell robust z, rep 2 = -3; Wolbachia per cell robust z, rep 3 = -2.14.
After knock-down of mRpL12 (GeneID 44326) [DRSC10467] the results were Wolbachia per cell robust z, rep 1 = 1.23 (active); Wolbachia per cell robust z, rep 2 = -3.21; Wolbachia per cell robust z, rep 3 = -1.61.
With knock-down of mRpL12 (GeneID 44326) [DRSC28525], the screen gave Wolbachia per cell robust z, rep 1 = 0.408; Wolbachia per cell robust z, rep 2 = 0.00941; Wolbachia per cell robust z, rep 3 = -0.215.
Depletion of CG34194 (GeneID 5740534) [DRSC05666] came out at: Wolbachia per cell robust z, rep 1 = -1.16; Wolbachia per cell robust z, rep 2 = -0.261; Wolbachia per cell robust z, rep 3 = 0.969.
Against CG34194 (GeneID 5740534) [DRSC41336] the deposit lists Wolbachia per cell robust z, rep 1 = 0.582; Wolbachia per cell robust z, rep 2 = 0.781; Wolbachia per cell robust z, rep 3 = 0.861.
CG31174 (GeneID 318616) [DRSC13518] showed Wolbachia per cell robust z, rep 1 = -1.03; Wolbachia per cell robust z, rep 2 = 0.573; Wolbachia per cell robust z, rep 3 = -0.2.
CG32797 + CR32733 [DRSC17705] showed Wolbachia per cell robust z, rep 1 = -0.283; Wolbachia per cell robust z, rep 2 = 0.209; Wolbachia per cell robust z, rep 3 = 0.604.
For CG7330 (GeneID 40007) [DRSC10813], the entry reads Wolbachia per cell robust z, rep 1 = 0.33; Wolbachia per cell robust z, rep 2 = 1.11; Wolbachia per cell robust z, rep 3 = -4.47.
After knock-down of CG7330 (GeneID 40007) [DRSC10814], the screen gave Wolbachia per cell robust z, rep 1 = -0.175; Wolbachia per cell robust z, rep 2 = 0.739; Wolbachia per cell robust z, rep 3 = -0.747.
After knock-down of CG18507 (GeneID 34775) [DRSC01334], the screen gave Wolbachia per cell robust z, rep 1 = -0.209; Wolbachia per cell robust z, rep 2 = -0.0376; Wolbachia per cell robust z, rep 3 = -0.252.
CG18507 (GeneID 34775) [DRSC01914] scored Wolbachia per cell robust z, rep 1 = -0.493; Wolbachia per cell robust z, rep 2 = -0.64; Wolbachia per cell robust z, rep 3 = -0.864.
